Results are given as percent effect.
The controls that fix the scale are not given in the record; negative values are as filed.
The entries come from a sample that favours strong results.

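Phenotypic screen: M. tuberculosis growth, cholesterol and DPPC medium, 4 days; the read-out is not stated. Concentration: 500 µM. Higher reads as more growth inhibition (inferred: compounds with an IC50 in retests scored well above the rest). About 18,000 compounds were tested under these conditions; 5% (about 900) showed 50% or more at least once.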

{"structure": "Cc1ccn(Cc2cccnc2)c(=O)c1", "effect": -5.785}
{"structure": "Cc1cnc(C(=O)Nc2ncccc2O)cn1", "effect": -1.897}
{"structure": "CC(C)(C)OC(=O)c1cncc(N)c1", "effect": 2.29}
{"structure": "Cc1ccccc1-c1nnc(CN2CCCS2(=O)=O)o1", "effect": 15.46}
{"structure": "NCC1(CC(N)=O)CCCCC1", "effect": 10.95}
{"structure": "COCCN(C(=O)c1sccc1OC)c1ccncc1", "effect": 5.333}
{"structure": "Cc1ccc(C(CN)N2CCOCC2)o1", "stereo": "stereo not given", "effect": 1.961}
{"structure": "CCn1ccc(C(=O)N(C)Cc2cccnc2OC)n1", "effect": 63.03}
{"structure": "CNc1cc(CN(C)Cc2ccco2)ccn1", "effect": 18.66}
{"structure": "Cc1ocnc1C(=O)N1CC(=O)Nc2ccc(Br)cc21", "effect": -5.619}
{"structure": "NCCN1CCN(c2ccc(F)cc2)CC1", "effect": 32.43}
{"structure": "COc1cc(CCN)cc(OC)c1O", "effect": 10.85}
{"structure": "CCOc1ccc2c(c1)C=C(C(=O)NC)CO2", "effect": 58.69}
{"structure": "FC(F)(F)Cn1cnc(C2COCCN2)n1", "stereo": "stereo not given", "effect": -15.3}
{"structure": "COCc1nn(Cc2sc(C)nc2C)c(=O)o1", "effect": 2.316}
{"structure": "CCNC(=O)C1CCN(Cc2cc(C)on2)CC1", "effect": -10.42}
{"structure": "CN(CCc1ccccn1)C(=O)C1CCCNCC1", "stereo": "stereo not given", "effect": -5.363}
{"structure": "CNCC(=O)NC(C)c1nc(-c2ccc(Br)cc2)no1", "stereo": "stereo not given", "effect": -18.24}
{"structure": "CN(C)[C@@H]1CN(C(=O)c2ccco2)C[C@H]1CO", "effect": -3.75}
{"structure": "Cc1cc(C)c2cc(C(=O)NCCO)[nH]c2c1", "effect": 7.371}
{"structure": "CS(=O)(=O)N1CCCc2c(F)cccc21", "effect": -13.11}
{"structure": "Cc1cc(C)nc(NC(=O)c2cc[nH]n2)c1", "effect": 3.952}
{"structure": "COCC(NC(=O)Nc1ccccc1F)C(N)=O", "stereo": "stereo not given", "effect": 13.49}
{"structure": "Cn1nccc1C(=O)Nc1sc2c(c1C#N)CCC2", "effect": -2.712}
{"structure": "Cc1ccc(CNc2ccc(N(C)C)nc2)o1", "effect": -1112}
{"structure": "NC(=O)c1ccsc1NC(=O)CCN1CCCC1", "effect": 53.67}
{"structure": "CNS(=O)(=O)c1ccc(C(=O)Nc2ccccc2C)o1", "effect": 0.6027}
{"structure": "COc1ccc(C(C)N)c(C)c1OC", "stereo": "stereo not given", "effect": -11.91}
{"structure": "CCS(=O)(=O)NCCNC(=O)c1cc(C)cc(Br)c1", "effect": 7.578}
{"structure": "COc1ccc2c(c1)CCN2C(=O)[C@@H](N)CC(C)C", "effect": 4.562}
{"structure": "COc1ccc(NC(=O)COc2ccccc2F)cn1", "effect": 70.49}
{"structure": "Cc1nc(NC2CC2)sc1C(=O)NCc1ccncc1", "effect": 17.5}
{"structure": "COc1cccc(NC(=O)CNC(C)(C)C)c1", "effect": 3.591}
{"structure": "CC(C)(C(=O)N1CCNCC1)c1ccccc1", "effect": 7.637}
{"structure": "CC(O)c1cc2n(n1)CCN(Cc1cccnc1)C2", "stereo": "stereo not given", "effect": 7.399}
{"structure": "Cc1ccc(CN)n1C", "effect": 75.58}
{"structure": "Cc1nn(C)c(C)c1CCC(=O)NC(CCO)C1CC1", "stereo": "stereo not given", "effect": -4.802}
{"structure": "C[C@@H](O)CNCC1=Cc2ccccc2OC1", "effect": 5.82}
{"structure": "CS(=O)(=O)CC(=O)Nc1cccc(Cl)c1Cl", "effect": 15.19}
{"structure": "NCCCc1cccc(F)c1", "effect": 102.9}
{"structure": "NC1CCN(c2ncc(C(F)(F)F)cc2Cl)C1", "stereo": "stereo not given", "effect": 89.21}
{"structure": "CC(C)c1ccc(CNCCNCCO)cc1", "effect": 18.25}
{"structure": "CC(=O)NCCCN1CCN(c2ccccc2F)CC1", "effect": 0.7338}
{"structure": "CN(CCCOc1ccccc1)CC(=O)NCCC#N", "effect": 3.186}
{"structure": "CCc1noc(Cn2nc(C(F)(F)F)ccc2=O)n1", "effect": 50.16}
{"structure": "CCc1ccc(CN(C)C(=O)CCNC(C)=O)nc1", "effect": -16.65}
{"structure": "CS(=O)(=O)CCSCc1ccn(-c2ccc(F)cc2)n1", "effect": -11.22}
{"structure": "CCC(C)NC(=O)CCN1C(=O)CCC1=O", "stereo": "stereo not given", "effect": 1.246}
{"structure": "c1cc(CCN2CCSCC2)ccn1", "effect": 5.105}
{"structure": "CCc1nccn1CCCNC(=O)CN1CCOC1=O", "effect": -0.6353}
{"structure": "Cn1cc(C(=O)Nc2ccc(F)cc2)ccc1=O", "effect": -4.699}
{"structure": "CCc1nc(CNC)cs1", "effect": 78.36}

The last 6 entries again:

structure,effect
CS(=O)(=O)CCSCc1ccn(-c2ccc(F)cc2)n1,-11.22
CCC(C)NC(=O)CCN1C(=O)CCC1=O (stereo not given),1.246
c1cc(CCN2CCSCC2)ccn1,5.105
CCc1nccn1CCCNC(=O)CN1CCOC1=O,-0.6353
Cn1cc(C(=O)Nc2ccc(F)cc2)ccc1=O,-4.699
CCc1nc(CNC)cs1,78.36

Source: ChEMBL document CHEMBL3988442, “University of Dundee, Small-Polar-MMV Screening Library” (2021).